From ChEMBL document CHEMBL5346934 (J Med Chem, 2023)

Test system: Cowpox virus
Assay: Antiviral activity against Cowpox virus Brighton infected in Vero cells measured after 4 days by colorimetric assay
Format: functional, organism-based
Conditions: strain Brighton

O=c1[nH]c(=O)n([C@H]2C[C@H](O)[C@@H](CO)S2)cc1I
EC50: 100 nM
